Source: PMC4498294, “Tetrahydroisoquinolines affect the whole-cell phenotype of Mycobacterium tuberculosis by inhibiting the ATP-dependent MurE ligase” (Journal of Antimicrobial Chemotherapy, 2015)
Values joined by “and” are separate entries in the source; they are usually repeats but may differ in a detail not shown here. Equal values may be shown once.

The compounds below were run on M. bovis BCG Pasteur (assay: not given). Conditions: RAW264.7 GIC50 divided by M. bovis BCG MIC.
Assay type: cell-based

Structure (SMILES) | SI (=GIC50/MIC)
COc1cc2c(c(O)c1OC)C[C@H]1c3c(cc4c(c3-2)OCO4)CCN1C [(S)-Leucoxine (1), (S)-Leucoxine] | 5.0
Oc1cc2c(cc1O)C(Cc1ccccc1)NCC2 (centres unmarked) [Compound 3] | <0.81
Oc1cc2c(cc1O)C(c1ccccn1)NCC2 (centres unmarked) [Compound 4] | <0.60
COc1ccc(C2NCCc3cc(O)c(O)cc32)cc1 (centres unmarked) [Compound 5] | <0.91
Oc1ccc(C2NCCc3cc(O)c(O)cc32)cc1 (centres unmarked) [Compound 6] | <0.92
Oc1cccc(C2NCCc3cc(O)c(O)cc32)c1 (centres unmarked) [Compound 7] | <0.88
Oc1cc2c(cc1O)C(c1ccccc1O)NCC2 (centres unmarked) [Compound 8] | <0.87
Oc1cc2c(cc1O)[C@@H](O)CN[C@H]2Cc1ccccc1 [Compound 10] | >2.5
O=C(O)[C@@H]1Cc2cc(O)c(O)cc2[C@@H](Cc2ccccc2)N1 [Compound 11] | <0.87
CC(C)=CCC[C@H](C)CC1NCCc2cc(O)c(O)cc21 (some centres unmarked) [Compound 13] | >2.5
OC[C@@H](O)[C@@H]1NCCc2cc(O)c(O)cc21 [Compound 14] | <0.85
Nc1ccc2c(c1)CCNC2Cc1ccccc1 (centres unmarked) [Compound 15] | <1.9
Oc1ccc2c(c1)CCNC2Cc1ccccc1 (centres unmarked) [Compound 16] | 2.0
Oc1cccc(CC2NCCc3cc(O)c(O)cc32)c1 (centres unmarked) [Compound 17] | <0.64
COc1ccc(CC2NCCc3cc(O)c(O)cc32)cc1OC (centres unmarked) [Compound 18] | <0.56
COc1cc(CC2NCCc3cc(O)c(O)cc32)ccc1O (centres unmarked) [Compound 19] | <0.50
Oc1cc2c(cc1O)C(Cc1ccc3c(c1)OCO3)NCC2 (centres unmarked) [Compound 20] | 1.9
Oc1cc2c(cc1O)C(Cc1ccccc1Br)NCC2 (centres unmarked) [Compound 21] | <0.47
CC1(C(=O)O)NCCc2cc(O)c(O)cc21 (centres unmarked) [Compound 22] | <1.8
Oc1cc2c(cc1O)C(C1CCCCC1)NCC2 (centres unmarked) [Compound 23] | <0.45

Structure (SMILES) | SI (=GIC50/MIC)
CCCCCCCCCC1NCCc2cc(O)c(O)cc21 (centres unmarked) [Compound 24] | 0.02
C[C@@H]1NC(Cc2ccc3c(c2)OCO3)c2ccc(O)cc2[C@H]1O (some centres unmarked) [Compound 25] | <1.8
O=C(O)[C@@H]1Cc2cc(O)c(O)cc2C(Cc2ccc3c(c2)OCO3)N1 (some centres unmarked) [Compound 26] | <1.8
Oc1ccc2c(c1)CCNC2Cc1ccc2c(c1)OCO2 (centres unmarked) [Compound 27] | 1.5
Oc1ccc(Br)c2c1C(Cc1ccc3c(c1)OCO3)NCC2 (centres unmarked) [Compound 28] | 2.3
Oc1cc2c(cc1O)C(c1cccc3c1OCO3)NCC2 (centres unmarked) [Compound 29] | <0.75
Oc1cc2c(cc1O)[C@@H](O)CNC2c1cccc2c1OCO2 (some centres unmarked) [Compound 30] | <0.89
CN1C[C@H](O)c2cc(O)c(O)cc2[C@@H]1c1cccc2c1OCO2 [Compound 31] | <1.4
CN1C[C@H](O)c2cc(O)c(O)cc2[C@H]1c1cccc2c1OCO2 [Compound 32] | <1.8
Oc1cc2c(c(O)c1O)C(c1cccc3c1OCO3)NCC2 (centres unmarked) [Compound 33] | <0.055
Oc1ccc2c(c1)CCNC2c1cccc2c1OCO2 (centres unmarked) [Compound 34] | <1.8
Oc1ccc(Br)c2c1C(c1cccc3c1OCO3)NCC2 (centres unmarked) [Compound 35] | 2.0
COc1ccc(Cl)c2c1C(Cc1ccc3c(c1)OCO3)NCC2 (centres unmarked) [Compound 36] | 1.0
COc1ccc(Br)c2c1C(Cc1ccc3c(c1)OCO3)NCC2 (centres unmarked) [Compound 37] | 1.5
COc1ccc(I)c2c1C(Cc1ccc3c(c1)OCO3)NCC2 (centres unmarked) [Compound 38] | 0.56
COc1ccc(Cl)c2c1C(Cc1cc3c(cc1Br)OCO3)NCC2 (centres unmarked) [Compound 39] | 1.8
COc1cccc2c1C(Cc1ccc3c(c1)OCO3)NCC2 (centres unmarked) [Compound 40] | <4.4
NNC(=O)c1ccncc1 [Isoniazid, reference compound] | 30 000
Oc1ccc(CC2NCCc3cc(O)c(O)cc32)cc1 (centres unmarked) [Norcoclaurine (2), Norcoclaurine] | <4.3
CO[C@H]1/C=C/O[C@@]2(C)Oc3c(C)c(O)c4c(O)c(c(/C=N/N5CCN(C)CC5)c(O)c4c3C2=O)NC(=O)/C(C)=C\C=C\[C@H](C)[C@H](O)[C@@H](C)[C@@H](O)[C@@H](C)[C@H](OC(C)=O)[C@@H]1C [Rifampicin, reference compound] | 14 000

Each compound was assayed on M. tuberculosis H37Rv (assay: SPOTi growth inhibition assay, M. tuberculosis H37Rv). Conditions: RAW264.7 GIC50 divided by M. tuberculosis H37Rv MIC.
Assay type: cell-based

Structure (SMILES) | SI against M. tuberculosis
COc1cc2c(c(O)c1OC)C[C@H]1c3c(cc4c(c3-2)OCO4)CCN1C [(S)-Leucoxine (1), (S)-Leucoxine] | 4.17 and 4
